{"source": "paper PMC10831071", "about": "“Reaction hijacking inhibition of Plasmodium falciparum asparagine tRNA synthetase” (Nature Communications, 2024)", "key": {"[1]": {"tested_on": "Dd2 parasites selected with OSM-S-106", "assay": "Sensitivity of ramp-up OSM-S-106-selected Dd2 clones", "assay_type": "cell-based, Plasmodium falciparum"}, "[2]": {"tested_on": "P. falciparum Dd2-B2 clone", "assay_type": "cell-based, Plasmodium falciparum", "settings": "OSM-S-106 selection at 3 × IC90", "from_the_text": "Wells were monitored daily by smear during the first 7 days to ensure parasite clearance, during which media was changed daily. […] Whole-genome sequencing analysis employed MiSeq data from libraries of 2 × 300 bp paired end reads."}}, "data": [{"smiles": "Nc1ncnc2cc(-c3cccc(S(N)(=O)=O)c3)sc12", "note": "[OSM-S-106]", "values": [{"measurement": "IC50 (fold increase)", "setting": "[1]; parasite Dd2-B2-2 (parent)", "value": 1.0, "unit": "fold"}, {"measurement": "IC50 (fold increase)", "setting": "[1]; parasite Dd2-B2-3 (parent)", "value": 1.0, "unit": "fold"}, {"measurement": "IC50 (fold increase)", "setting": "[1]; parasite Dd2-OSM-2A6", "value": 8.8, "unit": "fold"}, {"measurement": "IC50 (fold increase)", "setting": "[1]; parasite Dd2-OSM-2A9", "value": 4.1, "unit": "fold"}, {"measurement": "IC50 (fold increase)", "setting": "[1]; parasite Dd2-OSM-2B2", "value": 8.8, "unit": "fold"}, {"measurement": "IC50 (fold increase)", "setting": "[1]; parasite Dd2-OSM-2D6", "value": 9.9, "unit": "fold"}, {"measurement": "IC50 (fold increase)", "setting": "[1]; parasite Dd2-OSM-3E5", "value": 2, "unit": "fold"}, {"measurement": "IC50 (fold increase)", "setting": "[1]; parasite Dd2-OSM-3H7", "value": 2.8, "unit": "fold"}, {"measurement": "Minimum Inoculum for Resistance (MIR)", "setting": "[2]", "value": "> 2.4 × 10^8"}]}]}
